From publication PMC3842914, “Meleagrin, a New FabI Inhibitor from Penicillium chryosogenum with at Least One Additional Mode of Action” (PLoS ONE, 2013)

Key:
Conditions in all cases: exposure 4× MIC
S. aureus RN4220 = format: cell-based, Staphylococcus aureus
S. aureus KCTC 1916 = format: cell-based, Staphylococcus aureus
E. coli KCTC 1924 = format: cell-based

`Oc1cc(Cl)ccc1Oc1ccc(Cl)cc1Cl` [Triclosan, reference compound] was tested, and the Frequency of resistance (S. aureus RN4220) was 3.30±0.13×10^−8, the Frequency of resistance (S. aureus KCTC 1916) was 2.58±0.04×10^−9 and the Frequency of resistance (E. coli KCTC 1924) was 9.07±0.08×10^−8.
